This series deals with T1, TIA1 RRM1-3 (Homo sapiens).
T1 sequence (looked up): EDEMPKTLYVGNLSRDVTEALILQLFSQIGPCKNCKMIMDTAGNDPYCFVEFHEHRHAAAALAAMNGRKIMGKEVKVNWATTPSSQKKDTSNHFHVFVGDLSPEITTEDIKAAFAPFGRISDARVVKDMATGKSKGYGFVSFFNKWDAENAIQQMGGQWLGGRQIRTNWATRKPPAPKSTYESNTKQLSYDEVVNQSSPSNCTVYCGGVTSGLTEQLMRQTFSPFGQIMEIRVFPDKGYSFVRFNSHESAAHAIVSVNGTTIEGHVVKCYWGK
Kind of series: EMSA. As to conditions: 10 mM sodium phosphate pH 6.5, 50 mM NaCl, 1 mM DTT; room temperature, 20 min; 1.2% agarose; protein 0.1-10 uM; RNA annealed in 10 mM Tris pH 7.5, 100 mM KCl; purified recombinant protein; residues 2-274; label: 5' Cy3.

Results on two sequences are retold here after PMC10287707.

Where a protein sequence is shown, tags need not be part of it.

As to “UUUCGAUCUCUUGUAGAUCUGUUCUCUAAACGAACUUUAAAAUCU [SL2+SL3]”, the binding result was “binds”.

For the sequence UUUUUUUUUUU [U11], the binding result was “binds”.
